# According to patent US8299021B2, “Macrocyclic inhibitors of hepatitis C virus replication” (InterMune, Inc., priority 2005, dated 2012):
# Protein sequences, listed by entry. Tags and fused reporters are not part of them. Residues count along the entry.
# UniProt P27958, 1027-1657 limits assumed: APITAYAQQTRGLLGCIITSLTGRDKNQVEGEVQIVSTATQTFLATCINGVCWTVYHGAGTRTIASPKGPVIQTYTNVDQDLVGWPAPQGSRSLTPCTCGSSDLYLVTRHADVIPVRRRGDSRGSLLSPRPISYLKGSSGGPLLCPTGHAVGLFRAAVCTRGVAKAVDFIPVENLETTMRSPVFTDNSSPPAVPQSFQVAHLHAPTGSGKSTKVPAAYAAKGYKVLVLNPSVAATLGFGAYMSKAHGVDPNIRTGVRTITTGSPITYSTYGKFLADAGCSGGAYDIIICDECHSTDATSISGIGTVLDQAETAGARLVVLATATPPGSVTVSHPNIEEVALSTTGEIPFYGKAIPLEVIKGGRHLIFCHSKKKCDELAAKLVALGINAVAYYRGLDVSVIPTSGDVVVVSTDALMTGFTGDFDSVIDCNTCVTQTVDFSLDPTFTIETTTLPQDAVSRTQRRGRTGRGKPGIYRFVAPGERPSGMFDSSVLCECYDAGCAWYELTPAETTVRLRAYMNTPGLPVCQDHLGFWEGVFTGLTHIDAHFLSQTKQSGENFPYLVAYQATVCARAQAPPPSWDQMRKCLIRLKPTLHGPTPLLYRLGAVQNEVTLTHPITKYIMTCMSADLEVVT
# The match of structure and compound is tentative.
# Target: NS3-NS4 protease (full-length NS3/NS4A-2) (Hepatitis C virus genotype 1a, UniProt P27958)
# Assay: NS3-NS4 protease assay / NS3 inhibition assay (RETS1 substrate, fluorescence kinetic read)
# Assay type: biochemical
# Conditions: read-out: NS3-NS4 IC50
compound,measurement,value
O=C(CCC(F)(F)F)N[C@H]1CCCCC/C=C\[C@@H]2C[C@@]2(C(=O)NS(=O)(=O)C2CC2)NC(=O)[C@@H]2C[C@@H](OC(=O)N3Cc4ccccc4C3)CN2C1=O,IC50,< 100 nM
